Test results published in US10584361B2, “Algae having intracellular lipid particles and high lipid content” (THE UNIVERSITY OF AKRON, priority 2012, dated 2020).

Columns and labels:
algae [1] = assay: Lipid enhancement with glycerol (algae re-suspended in salts solution); format: cell-based
Description: The specific procedure was: • i. […] Rotate 20 min at 40% output (Glas-Col) • vi. Centrifuge at 3620 g for 5 min • vii.
Algae were first cultured and then collected by centrifuge.
The thin layer chromatography analysis was performed the same as in Experiment 2.

algae [2] = assay: Lipid enhancement with acetic acid/acetate salts and glycerol (algae re-suspended in salts solution); format: cell-based; conditions: 15 hrs after adding; substance as the carbon source

## OCC(O)CO [glycerol]
Algae [1]; 0.5, 1, 5 g/L glycerol
  effect of glycerol concentration on the lipid content: no obvious effect
Algae [1]; compared to the initial algae culture
  lipid profile by TLC: the free fatty acid part reduced and the triglyceride part became larger
Algae [2]
  particles inside alga cells (microscopic images): no particles inside alga cells were observed
